Measured values published in patent US20250115654A1 (FUJIAN SHENGDI PHARMACEUTICAL CO., LTD., priority 2021, published 2025).

Experiment: general procedure: Fmoc solid-phase peptide synthesis; Rink-amide MBHA resin (0.48 mMole/g); HCTU / 4-methylmorpholine
Details: whole synthesis
Work on “H-YAibEGTFTSDYSIYK(OEG-OEG-yGlu-C20-OH)EKIAAQEFVNWLLAGGPSSGAPPPS-NH2” yielded an isolated yield of 18%.

Same assay, conditions: whole synthesis, analytical HPLC combined with UHPLC/mass spectrometry
For “H-YAibEGTFTSDYSIYLEK(OEG-OEG-yGlu-C20-OH)IAAQEFVNWLIAGGPSSGAPPPS-NH2”, the “final HPLC purity” value was 93.28%. For “H-YAibEGTFTSDYSIYLEK(OEG-OEG-yGlu-C20-OH)IAAQEFINWLLAGGPSSGAPPPS-NH2”, the “final HPLC purity” value was 92.18%. For “H-YAibEGTFTSDYSIYK(OEG-OEG-yGlu-C20-OH)EKIAAQEFVNWLLAGGPSSGAPPPS-NH2”, the “final HPLC purity” value was 92.81%. In the case of “H-YAibEGTFTSDYSIYLEK(OEG-OEG-yGlu-C20-OH)IAAQEFVNWLLAGGPSSGAPPPS-NH2”, the “final HPLC purity” value is reported as 96.30%. With “H-YAibEGTFTSDYSIYLEK(OEG-OEG-yGlu-C20-OH)IAAQEFINWLIAGGPSSGAPPPS-NH2” the “final HPLC purity” value was 94.56%.
